A mixed list of measured activities; the numbers were collected in NIAID ChemDB.

Shared fields: host cell toxicity; cells: MT-4; measure: CC50

Lines come from different laboratories, so protocols vary.

compound	read by	result
CC(Cc1ccccc1)NC(=S)Nc1nccs1		108 µM
CCOC(=O)c1c(C)n([C@H]2C[C@@H]2c2ccccc2)c2ccc(O)cc12	MTT	>250 µM
CC1=C[C@@H]([C@H]2Oc3cc4c(c5c3[C@H](CC5)[C@@H]2C)CC[C@H]2C(C)(C)O[C@@H]3CC(=O)O[C@@]32C4)OC1=O	MTT	~120 µg/mL
O=C(Cc1ccccn1)NNC(=S)Nc1ccc(Cl)c(Cl)c1	MTT	>100 µM
COc1ncnc(NS(=O)(=O)c2ccc(N=C3C(=O)N(CN4CCCC4)c4ccccc43)cc2)c1OC		2.1 µg/mL
Cc1c(Cc2cccc3ccccc23)n(COCCO)c(=O)[nH]c1=O		205 µM
C/C(=N\Nc1nc(-c2ccc([N+](=O)[O-])cc2)cs1)c1ccc(-c2ccc(Br)cc2)cc1	MTT	66.15 µM
CC(C)CN(C[C@@H](O)[C@H](Cc1ccccc1)NC(=O)OCc1cccnc1)S(=O)(=O)c1ccc2nc[nH]c2c1		>100 µM
COc1ccc(/C(C)=N/NC(=O)c2ccncc2)c(OC)c1	MTT	12 µM
COc1ncnc(NS(=O)(=O)c2ccc(N=C3C(=O)N(CN4CCCC4)c4ccc(C)cc43)cc2)c1OC		21.1 µg/mL
C/C(=N\Nc1nc(-c2ccc(Cl)cc2)cs1)c1ccc(-n2ccnc2)cc1	MTT	92.25 µM
S=C(NCCc1ccccc1)Nc1cnccn1		>390 µM
COc1ncnc(NS(=O)(=O)c2ccc(N=C3C(=O)Nc4ccccc43)cc2)c1OC		104.1 µg/mL
Cc1cccc(Nc2ccccc2C(=O)Nc2ccc(C(=O)/C=C/c3ccc(Cl)cc3)cc2)c1C	MTT / absorbance	2.17 µM
CC(C)CN(C[C@@H](O)[C@H](Cc1ccccc1)NC(=O)O[C@H]1CO[C@H]2OCC[C@H]21)S(=O)(=O)c1ccc2nc(NC(=O)OCCN(C)C)[nH]c2c1		>100 µM
C(=N\Nc1nc(-c2ccccc2)cs1)/c1ccco1	MTT	11.3 µM
CCN(CC)CN1C(=O)C(=Nc2ccc(S(=O)(=O)Nc3ncnc(OC)c3OC)cc2)c2ccccc21		118.9 µg/mL
O=C(Cc1ccccn1)NNC(=S)Nc1cccc(Cl)c1	MTT	>100 µM
CC(C)CN(C[C@@H](O)[C@H](Cc1ccccc1)NC(=O)O[C@H]1CCOC1)S(=O)(=O)c1ccc2nc(N)[nH]c2c1		89.1 µM
Cc1cc(C)cc(N2C(=O)CSC2c2c(Cl)cccc2Cl)c1		20.1 µM
Clc1ccc(Nc2nnc(Cc3ccccn3)s2)cc1Cl	MTT	>100 µM
CCCN(C)c1nc(C(C)c2c(F)cccc2F)c(C)c(=O)[nH]1	MTT	>311 µM
O=[N+]([O-])c1ccc(-c2csc(N/N=C/c3ccccn3)n2)cc1	MTT	17.3 µM
Brc1cccc(Nc2nnc(Cc3ccccn3)s2)c1	MTT	74 µM
Fc1ccccc1CCNC(=S)Nc1nccs1		75 µM
COCn1c(Cc2cccc3ccccc23)c(C(C)C)c(=O)[nH]c1=O		42.2 µM
CCc1cccc(N2C(=O)CSC2c2c(F)cccc2Cl)c1		34.24 µM
S=C(NCCCc1ccccc1)Nc1nccs1		>360 µM
Cc1cccc(Nc2ccccc2C(=O)Nc2ccc(C(=O)/C=C/c3ccccc3)cc2)c1C	MTT / absorbance	>125 µM
O=C(O)c1csc(NC(=S)NCCc2ccccc2)n1		>325 µM
Fc1ccc(-n2c(Cc3ccccn3)n[nH]c2=S)cc1Cl	MTT	>100 µM
Cc1c(-c2c([C@H](OC(C)(C)C)C(=O)O)cnc3ccccc23)cc(F)c2c1CCCO2		42 µM
Cc1cccc(N2C(=O)CSC2c2c(F)cccc2F)c1		207.8 µM
Cc1cc(C(Cl)c2ccc(C(C)(C)C)cc2)nc(Nc2ccc(C#N)cc2)n1	MTT	31.9 µM
CCc1c(Cc2cccc3ccccc23)n(COCCO)c(=O)[nH]c1=O		191 µM
CCOc1cccc(F)c1CCNC(=S)Nc1ccc(Br)cn1		50 µM
CCNC(=O)c1c(O)c2ncc(Cc3ccc(F)cc3)cc2n(C)c1=O		>50 µM
O=C1CSC(c2c(F)cccc2F)N1c1cc(F)cc(F)c1		139 µM
CC(C)CN(C[C@@H](O)[C@H](Cc1ccccc1)NC(=O)O[C@H]1CCOC1)S(=O)(=O)c1ccc2nc[nH]c2c1		>100 µM
Cc1cccc(Nc2ccccc2C(=O)Nc2ccc(C(=O)/C=C/c3ccc(N(C)C)cc3)cc2)c1C	MTT / absorbance	2.06 µM
Cc1ccc(Cl)c(Nc2nnc(Cc3ccccn3)s2)c1	MTT	>100 µM
COC(=O)Nc1nc2ccc(S(=O)(=O)N(CC(C)C)C[C@@H](O)[C@H](Cc3ccccc3)NC(=O)OC3COC4OCCC34)cc2[nH]1		79.4 µM
CCOc1cccc(CCNC(=S)Nc2nccs2)c1		91 µM
CC(C)CN(C[C@@H](O)[C@H](Cc1ccccc1)NC(=O)O[C@H]1CCOC1)S(=O)(=O)c1ccc2ncn(C)c2c1		>32.4 µM
O=C1CSC(c2c(F)cccc2Cl)N1c1cccc([N+](=O)[O-])c1		32.03 µM
Cc1ccc(/C=C/C(=O)c2ccc(NC(=O)c3ccccc3Nc3cccc(C)c3C)cc2)cc1	MTT / absorbance	76.9 µM
COc1cccc(N2C(=O)CSC2c2c(F)cccc2F)c1		151 µM
CC(=O)Nc1nc2ccc(S(=O)(=O)N(CC(C)C)C[C@@H](O)[C@H](Cc3ccccc3)NC(=O)OC3COC4OCCC34)cc2[nH]1		>100 µM
COc1ncnc(NS(=O)(=O)c2ccc(N=C3C(=O)N(CN(C)C)c4ccccc43)cc2)c1OC		<1 µg/mL
CC(C)CN(C[C@@H](O)[C@H](Cc1ccccc1)NC(=O)OC1COC2OCCC12)S(=O)(=O)c1ccc2nc(N)[nH]c2c1		>100 µM
CCc1c(Cc2cccc3ccccc23)n(COC)c(=O)[nH]c1=O		111 µM
COc1ncnc(NS(=O)(=O)c2ccc(N=C3C(=O)N(CN4CCOCC4)c4ccccc43)cc2)c1OC		<2.1 µg/mL
S=c1[nH]nc(Cc2ccccn2)n1-c1cccc(Br)c1	MTT	>100 µM
CCOCn1c(Cc2cccc3ccccc23)c(CC)c(=O)[nH]c1=O		77.4 µM

Repeating the final 5 entries:

CC(C)CN(C[C@@H](O)[C@H](Cc1ccccc1)NC(=O)OC1COC2OCCC12)S(=O)(=O)c1ccc2nc(N)[nH]c2c1 ; result: >100 µM
CCc1c(Cc2cccc3ccccc23)n(COC)c(=O)[nH]c1=O ; result: 111 µM
COc1ncnc(NS(=O)(=O)c2ccc(N=C3C(=O)N(CN4CCOCC4)c4ccccc43)cc2)c1OC ; result: <2.1 µg/mL
S=c1[nH]nc(Cc2ccccn2)n1-c1cccc(Br)c1 ; read by: MTT ; result: >100 µM
CCOCn1c(Cc2cccc3ccccc23)c(CC)c(=O)[nH]c1=O ; result: 77.4 µM

Blank or dashed fields: not listed here. CCn is the concentration with n% toxicity to the cells.